Measured values from several laboratories, pooled; numbers as filed in NIAID ChemDB.

All rows: growth or infection tests; agent: Mycobacterium avium complex

a–b is a range or a potency band. Neighbouring rows are from separate reports. MIC50, MIC90 and the like: level of inhibition, or share of isolates inhibited. An empty or dashed field is not shown. ECn: concentration that inhibits the pathogen or its effect by n%.

compound | read-out | strain or isolate | read by | value
CC1(C)S[C@@H]2[C@H](NC(=O)[C@H](C(=O)[O-])c3ccsc3)C(=O)N2[C@H]1C(=O)[O-].[Na+].[Na+] | MIC | 30 isolates |  | >128 µg/mL
CO[C@H]1/C=C/O[C@@]2(C)Oc3c(C)c(O)c4c(O)c(c(/C=N/N5CCN(C6CCCC6)CC5)c(O)c4c3C2=O)NC(=O)/C(C)=C\C=C\[C@H](C)[C@H](O)[C@@H](C)[C@@H](O)[C@@H](C)[C@H](OC(C)=O)[C@@H]1C | MIC | Serotype 4 |  | 10 µg/mL
CCCCCCn1c(C)ccc1-c1ccc(Cl)cc1 | MIC | 103317 |  | >16 µg/mL
CC1CN(c2cc3c(cc2F)c(=O)c(C(=O)O)cn3C2CC2)CC(C)N1 | MIC50 | 14 strains |  | 0.5 µg/mL
CNn1cc(C(=O)O)c(=O)c2cc(F)c(N3CCN(C)CC3)cc21 | MIC90 | 19 strains |  | >25 µg/mL
Cc1cc(CN2CCN(C)CC2)c(C)n1Cc1ccccc1 | MIC | 103317 |  | >64 µg/mL
CN1CCN(CCCN=c2cc3n(-c4ccc(Cl)cc4)c4ccccc4nc-3cc2Nc2ccccc2)CC1 | MIC90 | 10 srtains |  | 0.87 µg/mL
NC(=O)c1cnccn1 | MBC | 101 |  | >64 µg/mL
CO/N=C(\C(=O)N[C@@H]1C(=O)N2C(C(=O)O)=CCS[C@H]12)c1csc(N)n1 | MIC | J11 |  | 1.56 µg/mL
CN[C@@H]1[C@H](O[C@H]2[C@H](O[C@H]3[C@H](O)[C@@H](O)[C@H](N=C(N)N)[C@@H](O)[C@@H]3N=C(N)N)O[C@@H](C)[C@]2(O)C=O)O[C@@H](CO)[C@H](O)[C@H]1O | MIC | Isolate C-50 |  | ≤12.5 µg/mL
O=[N+]([O-])c1ccccc1Sn1cnc2c(=S)nc[nH]c21 | EC50 |  | resazurin | <12.5 µM
CC[C@@H](CO)NCCN[C@@H](CC)CO | MIC | 13008 (serotype 20) |  | 0.4 µg/mL
N[C@@H]1CN(c2c(F)cc3c(=O)c(C(=O)O)cn([C@@H]4C[C@@H]4F)c3c2Cl)CC12CC2 | MIC90 | 20 strains |  | 6.25 µg/mL
CN[C@@H]1[C@H](O[C@H]2[C@H](O[C@H]3[C@H](O)[C@@H](O)[C@H](N=C(N)N)[C@@H](O)[C@@H]3N=C(N)N)O[C@@H](C)[C@]2(O)C=O)O[C@@H](CO)[C@H](O)[C@H]1O | MIC | N-444 |  | 4 µg/mL
Cc1ccc(-c2ccc(Cl)cc2)[nH]1 | MIC | 103317 |  | >16 µg/mL
NC(=O)c1cnccn1 | EC50 | 155 strains | agar | >50 µg/mL
Clc1ccc(Nc2cc3nc4ccccc4n(-c4ccc(Cl)cc4)c-3cc2=NCCCN2CCCC2)cc1 | MIC90 | 10 srtains |  | 1.88 µg/mL
CC[C@@H](CO)NCCN[C@@H](CC)CO | MIC | 211-5 |  | 1.9 µg/mL
CO[C@H]1/C=C/O[C@@]2(C)Oc3c(C)c(O)c4c(O)c(c(/C=N/N5CCN(C)CC5)c(O)c4c3C2=O)NC(=O)/C(C)=C\C=C\[C@H](C)[C@H](O)[C@@H](C)[C@@H](O)[C@@H](C)[C@H](OC(C)=O)[C@@H]1C | MIC50 | 20 strains |  | 8 µg/mL
O=C(O)[C@H]1/C(=C/CO)O[C@@H]2CC(=O)N21 | MIC | 30 isolates |  | >128 µg/mL
CO[C@H]1/C=C/O[C@@]2(C)Oc3c(C)c(O)c4c(O)c(c(/C=N/N5CCN(C)CC5)c(O)c4c3C2=O)NC(=O)/C(C)=C\C=C\[C@H](C)[C@H](O)[C@@H](C)[C@@H](O)[C@@H](C)[C@H](OC(C)=O)[C@@H]1C | MIC | CIPT 140310006 |  | 0.1 µg/mL
CN[C@@H]1[C@H](O[C@H]2[C@H](O[C@H]3[C@H](O)[C@@H](O)[C@H](N=C(N)N)[C@@H](O)[C@@H]3N=C(N)N)O[C@@H](C)[C@]2(O)C=O)O[C@@H](CO)[C@H](O)[C@H]1O | MIC | 13016 (serotype 4) |  | 3.2 µg/mL
CO[C@H]1/C=C/O[C@@]2(C)Oc3c(C)c(O)c4c(O)c(c(/C=N/N5CCN(C)CC5)c(O)c4c3C2=O)NC(=O)/C(C)=C\C=C\[C@H](C)[C@H](O)[C@@H](C)[C@@H](O)[C@@H](C)[C@H](OC(C)=O)[C@@H]1C | MIC | 30 isolates |  | 16 µg/mL
Cc1c(N2C[C@@H](N)C3(CC3)C2)c(F)c(N)c2c(=O)c(C(=O)O)cn(C3CC3)c12 | MIC90 | 20 strains |  | 25 µg/mL
CCCCN1CCN(c2cc3c(cc2F)c(=O)c(C(=O)O)cn3-c2ccc(F)cc2F)CC1 | MIC90 | 14 strains |  | 16 µg/mL
CC[C@@H](CO)NCCN[C@@H](CC)CO | MBC | 9141 |  | 60 µg/mL
NC[C@@H]1O[C@H](O[C@H]2[C@@H](O)[C@H](O[C@@H]3[C@@H](O)[C@H](N)C[C@H](N)[C@H]3O[C@H]3O[C@H](CO)[C@@H](O)[C@H](O)[C@H]3N)O[C@@H]2CO)[C@H](N)[C@@H](O)[C@@H]1O | MIC | Isolate 64 |  | 3.13 µg/mL
CO[C@H]1/C=C/O[C@@]2(C)Oc3c(C)c(O)c4c(O)c(c5c(c4c3C2=O)NC2(CCN(CC(C)C)CC2)N=5)=NC(=O)/C(C)=C\C=C\[C@H](C)[C@H](O)[C@@H](C)[C@@H](O)[C@@H](C)[C@H](OC(C)=O)[C@@H]1C | MIC | 31F093T |  | 1.25 µg/mL
NCC[C@H](O)C(=O)N[C@@H]1C[C@H](N)[C@@H](O[C@H]2O[C@H](CN)[C@@H](O)[C@H](O)[C@H]2O)[C@H](O)[C@H]1O[C@H]1O[C@H](CO)[C@@H](O)[C@H](N)[C@H]1O | MIC | 101 |  | 1 µg/mL
CN[C@@H]1[C@@H](O)[C@@H](O[C@@H]2[C@@H](O)[C@H](O[C@H]3O[C@H](CN)CC[C@H]3N)[C@@H](N)C[C@H]2N)OC[C@]1(C)O | MIC | TMC 1473 |  | 0.1 µg/mL
CN[C@@H]1[C@@H](O)[C@@H](O[C@@H]2[C@@H](O)[C@H](O[C@H]3O[C@H](CN)CC[C@H]3N)[C@@H](N)C[C@H]2N)OC[C@]1(C)O | MIC | 101 |  | >64 µg/mL
CO[C@H]1/C=C/O[C@@]2(C)Oc3c(C)c(O)c4c(=O)c(c5oc6cc(N7CCN(C(C)C)CC7)cc(=O)c6nc5c4c3=C2O)NC(=O)/C(C)=C\C=C\[C@H](C)[C@H](O)[C@@H](C)[C@@H](O)[C@@H](C)[C@H](OC(C)=O)[C@@H]1C | MIC | 31F093T |  | 0.07 µg/mL
CCN1CCN(c2cc3c(cc2F)c(=O)c(C(=O)O)cn3C2CC2)CC1 | MIC50 | 14 strains |  | 2 µg/mL
CCCCCCCCO[C@@H]1OC(C)[C@H](O[C@@H]2O[C@@H]([C@@H](COC(C)=O)OC(C)=O)[C@H](OC(C)=O)[C@H]2OC(C)=O)C(O)C1O | MIC | NJ3404 |  | >128 µg/mL
C[C@@H]1CN(c2c(F)c(N)c3c(=O)c(C(=O)O)cn(C4CC4)c3c2F)C[C@H](C)N1 | MIC50 | 12 strains |  | 0.5 µg/mL
CO[C@H]1/C=C/O[C@@]2(C)Oc3c(C)c(O)c4c(O)c(c5c(c4c3C2=O)NC2(CCN(CC(C)C)CC2)N=5)=NC(=O)/C(C)=C\C=C\[C@H](C)[C@H](O)[C@@H](C)[C@@H](O)[C@@H](C)[C@H](OC(C)=O)[C@@H]1C | MIC | N-260 |  | 0.2 µg/mL
COc1c(N2CCNC(C)C2)c(F)cc2c(=O)c(C(=O)O)cn(C3CC3)c12 | MIC50 | 14 strains |  | 0.25 µg/mL
CC[C@H]1OC(=O)[C@H](C)[C@@H](O[C@H]2C[C@@](C)(OC)[C@@H](O)[C@H](C)O2)[C@H](C)[C@@H](O[C@@H]2O[C@H](C)C[C@H](N(C)C)[C@H]2O)[C@](C)(OC)C[C@@H](C)C(=O)[C@H](C)[C@@H](O)[C@]1(C)O | MIC50 | 20 strains |  | 12.5 µg/mL
Cc1ccc(-c2ccc(Cl)cc2)n1C1CCCCC1 | MIC | 103317 |  | >16 µg/mL
N[C@@H]1CN(c2c(F)cc3c(=O)c(C(=O)O)cn([C@@H]4C[C@@H]4F)c3c2Cl)CC12CC2 | MIC | N-444 |  | 1 µg/mL
Cc1c(CN2CCOCC2)c(CN2CCOCC2)c(-c2ccc(Cl)cc2)n1C1CCCCC1 | MIC | 103317 |  | 8 µg/mL
CO[C@H]1/C=C/O[C@@]2(C)Oc3c(C)c(O)c4c(O)c(c(/C=N/N5CCN(C)CC5)c(O)c4c3C2=O)NC(=O)/C(C)=C\C=C\[C@H](C)[C@H](O)[C@@H](C)[C@@H](O)[C@@H](C)[C@H](OC(C)=O)[C@@H]1C | MIC | N-444 |  | 8 µg/mL
NC[C@H]1O[C@H](O[C@H]2[C@H](O)[C@@H](O[C@H]3O[C@H](CO)[C@@H](O)[C@H](N)[C@H]3O)[C@H](N)C[C@@H]2N)[C@H](N)[C@@H](O)[C@@H]1O | MIC | TMC 1473 |  | 0.78 µg/mL
O=C(O)c1cn(C2CC2)c2c(F)c(N3CCC(O)C3)c(F)cc2c1=O | MIC50 | 14 strains |  | 4 µg/mL
CN[C@@H]1[C@H](O[C@H]2[C@H](O[C@H]3[C@H](O)[C@@H](O)[C@H](N=C(N)N)[C@@H](O)[C@@H]3N=C(N)N)O[C@@H](C)[C@]2(O)C=O)O[C@@H](CO)[C@H](O)[C@H]1O | MBC | 101 |  | 16 µg/mL
Cc1c(F)ccc(-n2cc(C(=O)O)c(=O)c3cc(F)c(N4CC(C)NC(C)C4)cc32)c1F | MIC50 | 14 strains |  | ≥32 µg/mL
CN[C@@H]1[C@H](O[C@H]2[C@H](O[C@H]3[C@H](O)[C@@H](O)[C@H](N=C(N)N)[C@@H](O)[C@@H]3N=C(N)N)O[C@@H](C)[C@]2(O)C=O)O[C@@H](CO)[C@H](O)[C@H]1O | MIC | Isolate 64 |  | 100 µg/mL
CC[C@H]1OC(=O)[C@H](C)[C@@H](O[C@H]2C[C@@](C)(OC)[C@@H](O)[C@H](C)O2)[C@H](C)[C@@H](O[C@@H]2O[C@H](C)C[C@H](N(C)C)[C@H]2O)[C@](C)(O)C[C@@H](C)CN(C)[C@H](C)[C@@H](O)[C@]1(C)O | MIC50 | 28 strains |  | 16 µg/mL
CCn1cc(C(=O)O)c(=O)c2cc(F)c(N3CCNCC3)cc21 | MIC | 30 isolates |  | 128 µg/mL
C[C@@H]1CN(c2c(F)c(N)c3c(=O)c(C(=O)O)cn(C4CC4)c3c2F)C[C@H](C)N1 | MIC90 | 35 strains |  | ≤0.5 µg/mL
CO[C@H]1/C=C/O[C@@]2(C)Oc3c(C)c(O)c4c(O)c(c5c(c4c3C2=O)NC2(CCN(CC(C)C)CC2)N=5)=NC(=O)/C(C)=C\C=C\[C@H](C)[C@H](O)[C@@H](C)[C@@H](O)[C@@H](C)[C@H](OC(C)=O)[C@@H]1C | MIC | 30 isolates |  | 0.03–2 µg/mL
Nc1ccc(C(=O)O)c(O)c1 | EC50 | 97 strains | agar | >10 µg/mL
NC[C@H]1O[C@H](O[C@H]2[C@H](O[C@@H]3O[C@H](CO)[C@@H](O)[C@H]3O)[C@@H](O)[C@H](N)C[C@@H]2N)[C@H](N)[C@@H](O)[C@@H]1O | MIC | Isolate 93 |  | 1.56 µg/mL

The last 4 rows once more:

compound | read-out | strain or isolate | read by | value
C[C@@H]1CN(c2c(F)c(N)c3c(=O)c(C(=O)O)cn(C4CC4)c3c2F)C[C@H](C)N1 | MIC90 | 35 strains |  | ≤0.5 µg/mL
CO[C@H]1/C=C/O[C@@]2(C)Oc3c(C)c(O)c4c(O)c(c5c(c4c3C2=O)NC2(CCN(CC(C)C)CC2)N=5)=NC(=O)/C(C)=C\C=C\[C@H](C)[C@H](O)[C@@H](C)[C@@H](O)[C@@H](C)[C@H](OC(C)=O)[C@@H]1C | MIC | 30 isolates |  | 0.03–2 µg/mL
Nc1ccc(C(=O)O)c(O)c1 | EC50 | 97 strains | agar | >10 µg/mL
NC[C@H]1O[C@H](O[C@H]2[C@H](O[C@@H]3O[C@H](CO)[C@@H](O)[C@H]3O)[C@@H](O)[C@H](N)C[C@@H]2N)[C@H](N)[C@@H](O)[C@@H]1O | MIC | Isolate 93 |  | 1.56 µg/mL